These results are taken from patent US20240158472A1, “FERRITIN VARIANTS WITH INCREASED STABILITY AND COMPLEXATION ABILITY” (Cellis AG, priority 2021, published 2024).

This data set can be described thus: Native PAGE gel after doxorubicin encapsulation and purification. The data set is classed as physicochemical. Particulars: after doxorubicin encapsulation, mutants carry added K54E, K72E, K87Q, K144E, C91S, C103S. From the text: Native PAGE gel has been performed in order to check the size of the protein after encapsulation and purification. […] A greater degree of aggregation adversely affects the loading efficiency and protein recovery after loading with doxorubicin (FIG. 3).

As to “WT: human wild-type heavy chain ferritin (SEQ ID NO. 1)”, the “forms on native gel (aggregates versus 24-mers)” value (listed as wild type ferritin) was “mainly forms of double glued frames, aggregates of cages and larger forms of aggregates”; the “forms on native gel (aggregates versus 24-mers)” value (listed as wild type protein) is “heterogeneity of forms”.
